Data: patent EP1951748B1, “HEPATITIS C VIRUS VARIANTS” (Vertex Pharmaceuticals, Inc., priority 2005, dated 2007)

System: HCV NS3 protease A156T/V/I
Test: Enzymatic IC50 assay, mutations at the same position pooled
Assay type: biochemical
Conditions: mean of all A156T/V/I mutants tested

Structure (SMILES): CCC[C@H](NC(=O)[C@@H]1[C@H]2CCC[C@H]2CN1C(=O)[C@@H](NC(=O)[C@@H](NC(=O)c1cnccn1)C1CCCCC1)C(C)(C)C)C(=O)C(=O)NC1CC1 [VX-950]
- IC50: 29.8 µM
